# Potato spindle tuber viroid, loop 15: variant abundance in plants

Values reported by Wu et al. 2024 (doi:10.1371/journal.ppat.1012142).

Region: loop 15 of PSTVd (intermediate strain), upper and lower strand joined, each 5' to 3', the first 7 letters being the upper strand, closing pairs included. Wild type: GGAAACCGCUACUAC. Varied positions (N): GGAAACCGNNNNNNC.

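A pool of all variants was put on leaves of three Nicotiana benthamiana plants. Samples came from the inoculated region at 5 days, the leaf margin at 10 and upper systemic leaves at 12.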

Values are reads per thousand in the sample; higher means more abundant, 0 means not found. Each value is the mean of three plants. "Pool" is the share in the plasmid pool used as inoculum, on the same scale. The inoculated region was read from the minus strand, the other sites from the plus strand.

| sequence | pool | inoculated region | leaf margin | systemic leaves |
|---|---|---|---|---|
| GGAAACCGGUAGACC | 0.304 | 0.0859 | 0 | 0.00537 |
| GGAAACCGGCUUCCC | 0.192 | 0.105 | 0.0121 | 0 |
| GGAAACCGCCAGGCC | 0.320 | 0.0956 | 0.0175 | 0 |
| GGAAACCGUAGAGCC | 0.192 | 0.0617 | 0 | 0 |
| GGAAACCGACAGUUC | 0.160 | 0.320 | 0.0759 | 0.0746 |
| GGAAACCGCGAAGAC | 0.288 | 0.0517 | 0.0289 | 0 |
| GGAAACCGCUAGAUC | 0.272 | 0.307 | 0.133 | 0.0821 |
| GGAAACCGCAGGAUC | 0.224 | 0.0965 | 0 | 0 |
| GGAAACCGUAUCAGC | 0.320 | 0.100 | 0.00668 | 0 |
| GGAAACCGAGCGCUC | 0.208 | 0.0849 | 0.0134 | 0.00760 |
| GGAAACCGUCGAUGC | 0.256 | 0.151 | 0 | 0 |
| GGAAACCGGGUUAGC | 0.320 | 0.0955 | 0.0134 | 0 |
| GGAAACCGGGCUGCC | 0.320 | 0.0389 | 0.00742 | 0 |
| GGAAACCGAGGUCCC | 0.160 | 0.0622 | 0.0195 | 0 |
| GGAAACCGGUUAAAC | 0.176 | 0.0861 | 0.0262 | 0 |
| GGAAACCGGGCAUAC | 0.256 | 0.155 | 0.00539 | 0.00537 |
| GGAAACCGAGUGUGC | 0.208 | 0.0668 | 0 | 0.00537 |
| GGAAACCGCAAAAUC | 0.144 | 0.0616 | 0.0141 | 0.00760 |
| GGAAACCGAGACAUC | 0.160 | 0.0795 | 0 | 0 |
| GGAAACCGGCAUGGC | 0.224 | 0.0494 | 0.00668 | 0 |
| GGAAACCGUAUAUCC | 0.240 | 0.0440 | 0.0254 | 0 |
| GGAAACCGGGGUUUC | 0.208 | 0.117 | 0.0262 | 0 |
| GGAAACCGAUCCACC | 0.192 | 0.0786 | 0 | 0 |
| GGAAACCGCAGGUAC | 0.368 | 0.283 | 0.118 | 0.0417 |
| GGAAACCGAUCUGCC | 0.176 | 0.135 | 0.0187 | 0.00760 |
| GGAAACCGGAUCGCC | 0.128 | 0.0729 | 0 | 0 |
| GGAAACCGACUAUAC | 0.224 | 0.236 | 0.0867 | 0 |
| GGAAACCGAAGUCGC | 0.240 | 0.0742 | 0.0128 | 0 |
| GGAAACCGGGAUAAC | 0.192 | 0.0792 | 0.0262 | 0 |
| GGAAACCGGGGACUC | 0.0960 | 0.0859 | 0.0108 | 0 |
| GGAAACCGGUAUGUC | 0.272 | 0.0678 | 0 | 0 |
| GGAAACCGGUAAGGC | 0.224 | 0.0995 | 0 | 0 |
| GGAAACCGCCUUAAC | 0.240 | 0.140 | 0.0108 | 0.00537 |
| GGAAACCGGCCGCGC | 0.400 | 0.0860 | 0.0121 | 0 |
| GGAAACCGAGCGAAC | 0.256 | 0.356 | 0.100 | 0.0107 |
| GGAAACCGACACGAC | 0.368 | 0.0937 | 0.00668 | 0 |
| GGAAACCGUGUGACC | 0.144 | 0.0661 | 0 | 0.00760 |
| GGAAACCGUAUGCUC | 0.272 | 0.127 | 0 | 0 |
| GGAAACCGGCCCACC | 0.144 | 0.0732 | 0.0134 | 0.00537 |
| GGAAACCGCAUUCUC | 0.240 | 0.0720 | 0.0141 | 0.00537 |
| GGAAACCGCUUUAAC | 0.144 | 0.0923 | 0.0195 | 0 |
| GGAAACCGCGCGGAC | 0.240 | 0.253 | 0.0765 | 0.00537 |
| GGAAACCGCAGUCCC | 0.272 | 0.0930 | 0.00668 | 0 |
| GGAAACCGGCUUAUC | 0.160 | 0.108 | 0 | 0.00537 |
| GGAAACCGCCCCCUC | 0.256 | 0.128 | 0.0121 | 0 |
| GGAAACCGUCCAAGC | 0.272 | 0.158 | 0.0141 | 0 |
| GGAAACCGGAAAUAC | 0.272 | 0.271 | 0.143 | 0.0686 |
| GGAAACCGCGCGGCC | 0.320 | 0.134 | 0.00742 | 0 |
| GGAAACCGUAGCAUC | 0.304 | 0.0783 | 0.0141 | 0 |
| GGAAACCGUAUGGUC | 0.240 | 0.0732 | 0.0121 | 0 |
| GGAAACCGAGCGUUC | 0.176 | 0.546 | 0.155 | 0.0435 |
| GGAAACCGAUGGUAC | 0.224 | 0.346 | 0.0739 | 0.0458 |
| GGAAACCGCCGUACC | 0.160 | 0.0976 | 0.00668 | 0 |
| GGAAACCGAGACGUC | 0.224 | 0.0824 | 0.0128 | 0 |
| GGAAACCGCGGGAAC | 0.288 | 0.120 | 0 | 0 |
| GGAAACCGCGCCGGC | 0.176 | 0.101 | 0 | 0.00537 |
| GGAAACCGUGAGCUC | 0.288 | 0.353 | 0.0947 | 0 |
| GGAAACCGCAUGAUC | 0.192 | 0.211 | 0.0202 | 0 |
| GGAAACCGUUGCAAC | 0.368 | 0.0880 | 0.0208 | 0 |
| GGAAACCGCUUGGGC | 0.320 | 0.134 | 0.00668 | 0 |
| GGAAACCGCUGAAGC | 0.176 | 0.114 | 0 | 0 |
| GGAAACCGGCUCAUC | 0.384 | 0.105 | 0.00539 | 0.0107 |
| GGAAACCGACAAUGC | 0.208 | 0.346 | 0.123 | 0.0268 |
| GGAAACCGUGAAAUC | 0.192 | 0.0923 | 0 | 0.00537 |
| GGAAACCGAACCUUC | 0.288 | 0.0861 | 0 | 0 |
| GGAAACCGAUCCCGC | 0.272 | 0.0569 | 0.00668 | 0 |
| GGAAACCGCAUUACC | 0.352 | 0.0678 | 0 | 0 |
| GGAAACCGAUGGCGC | 0.176 | 0.0978 | 0.0108 | 0 |
| GGAAACCGGGAGAUC | 0.176 | 0.118 | 0.00668 | 0 |
| GGAAACCGCGAGCAC | 0.272 | 0.314 | 0.121 | 0.0868 |
| GGAAACCGAGCGGGC | 0.224 | 0.0795 | 0 | 0 |
| GGAAACCGAUAUGCC | 0.336 | 0.125 | 0.00742 | 0 |
| GGAAACCGGCGCUGC | 0.128 | 0.178 | 0.0208 | 0.00504 |

Sequences that differ at fixed positions probably stem from PCR or sequencing errors, and defective variants can be carried along by functional ones. For reference, wild type rose from 33.9 per thousand in the pool to 202, 200, 159 (inoculated region), 724, 746, 710 (leaf margin) and 856, 883, 880 (systemic leaves). Samples held 43,870 to 66,106 reads, so the smallest values rest on one or two reads.